{"source": "patent US4939177A", "about": "“Use of avarol for the control of AIDS and ARC” (Merz + Co. GmbH & Co., priority 1986, dated 1990)", "tested_on": "HTLV-III reverse transcriptase", "experiment": "Reverse transcriptase activity in supernatant of H9-HTLV-III cells (virus production)", "details": "for Reverse Transcriptase activity (in %): four-day addition, none = 100, 5760 min"}
{"smiles": "CC1=CCC[C@H]2[C@](C)(Cc3cc(O)ccc3O)[C@@H](C)CC[C@]12C", "note": "[Avarol, 2-[(1R)-1,2,3,4,4a,7,8,8aα-octahydro-1β,2β,4aβ,5-tetramethyl-1-naphthylmethyl]-1,4-benzenediol]", "values": [{"measurement": "Reverse Transcriptase activity (in %)", "setting": "0.1 μg/ml", "result": 36, "unit": "%"}, {"measurement": "Reverse Transcriptase activity (in %)", "setting": "1 μg/ml", "result": 20, "unit": "%"}, {"measurement": "Reverse Transcriptase activity (in %)", "setting": "5 μg/ml", "result": 18, "unit": "%"}, {"measurement": "reverse transcriptase activity in the supernatant, in words", "setting": "H9-HTLV-III cells", "result": "dose-dependent reduction of the reverse transcriptase activity"}]}
